Reference: patent US6602861B1, “Acylated phospholipid drugs” (Research Corporation Technologies, Inc., priority 1992, dated 2003)

Assays:
[1] = test system: HIV (S5G7, subclone of HTLVIIIB); settings: reverse transcriptase assay
[2] = test system: HIV; settings: syncytial cell assay

For “1,2-(di-12-methoxydodecanoyl)-sn-3-phosphatidylcholine [L-AC2]”, the “Therapeutic Index PBMC (TC50/IC50)” value [1] was 37, the “Therapeutic Index PBMC (TC50/IC50)” value ([1]; listed as AC2) was 31 and the “Therapeutic Index MT4 cells (TC50/IC50)” value [2] was 280.

Read-outs that look alike come from different tables or passages of the source.
